From article PMC6287010

Test system: CCCCCCCC(=O)Oc1ccc([N+](=O)[O-])cc1
Assay: purified protein
Settings: pH 8.0; 45.0 °C

Substance: rEst (Mycobacterium tuberculosis H37Rv)
- Km: 67 ± 5 µM
- Vmax: 7000 µM/min

Substance: rRv1288 (Mycobacterium tuberculosis H37Rv)
- Km: 77 ± 7 µM
- Vmax: 11000 µM/min
